Results as given in WO2001000678A1.

Tests used:
[1] = molecular target: recombinant HIV-1 envelope glycoprotein gp120 (HIV-1 (clone derived from HIV-1 IIIb)); assay: competition ELISA on gp120, soluble CD4 against biotinylated F105 Fab
[2] = molecular target: recombinant HIV-1 envelope glycoprotein gp120 (HIV-1 (clone derived from HIV-1 IIIb)); assay: competition ELISA on gp120, soluble CD4 against biotinylated Fab 5
[3] = molecular target: recombinant HIV-1 envelope glycoprotein gp120 (HIV-1 (clone derived from HIV-1 IIIb)); assay: competition ELISA on gp120, soluble CD4 against biotinylated Fab 1
[4] = molecular target: recombinant HIV-1 envelope glycoprotein gp120 (HIV-1 (clone derived from HIV-1 IIIb)); assay: competition ELISA on gp120, soluble CD4 against biotinylated Fab 3
[5] = molecular target: recombinant HIV-1 envelope glycoprotein gp120 (HIV-1 (clone derived from HIV-1 IIIb)); assay: competition ELISA on gp120, soluble CD4 against biotinylated Fabs 4 and 7 (group; member at this end not told)
[6] = molecular target: recombinant HIV-1 envelope glycoprotein gp120 (HIV-1 (clone derived from HIV-1 IIIb)); assay: competition ELISA on gp120, soluble CD4 against biotinylated Fab 2
[7] = molecular target: recombinant HIV-1 envelope glycoprotein gp120 (HIV-1 (clone derived from HIV-1 IIIb)); assay: competition ELISA on gp120, soluble CD4 against biotinylated Fab 6

With “recombinant CD4 (from UniProt P01730 26-394) (receptor)” the IC50 [1] was 0.6 µg/mL, the IC50 [2] was 0.5 µg/mL and the IC50 [3] was 0.3 µg/mL. For the same substance, the IC50 [4] was 0.3 µg/mL, the IC50 [5] was 0.7 µg/mL and 0.8 µg/mL and the IC50 [6] was 0.5 µg/mL. It also gave an IC50 [7] of 0.2 µg/mL.

Values joined by “and” are separate entries in the source; they are usually repeats but may differ in a detail not shown here. Equal entries are not always repeated.
